Assay [1] concerns the target T1, ricin A-chain (RTA) (Ricinus communis, UniProt P02879). Nature of the assay: Tryptophan fluorescence titration of ligands onto RTA (single-site binding, van't Hoff analysis). To be noted: for ΔG°: binding to RTA; for wavelength of maximal emission of RTA fluorescence: in the presence of 2 mM adenine or 1.0 M urea, RTA alone 330 nm; for ΔH° / ΔS°: van't Hoff analysis, 5 to 30°C.

For assay [2], the target named is T1, ricin A-chain (RTA). To be noted: cited from earlier work.
A further assay relates to RTA depurination site. To be noted: monitored by fluorescence; ref 10 (Watanabe et al.); cited from earlier work.
The mark [3] stands for this setting: 25°C, average and standard error of three measurements.

Here are results for 9 molecules from article PMC2194779, “Fragment-based identification of determinants of conformational and spectroscopic change at the ricin active site” (2007).

pKd: −log10 of the molar value.

Urea: the “ΔG°” value at ricin A-chain (RTA) [1] (setting [3]) was -0.48 ± 0.14 kcal/mol. In addition, at ricin A-chain (RTA) [1], the “wavelength of maximal emission of RTA fluorescence” value is recorded as 334 nm, the “ΔH°” value was -3.11 ± 0.48 kcal/mol and the “ΔS°” value was -0.04 ± 0.01 kJ/(K*mol).

The term pKd denotes −log10 of the Kd, conventionally taken in molar units. Turning to `Nc1ncnc2nc[nH]c12`, the pKd was 3.15 on ricin A-chain (RTA) [1] (fluorescence); 3.15 at ricin A-chain (RTA) [1] (fluorescence intensity at 344 nm, 25°C, pH 7.4, average and standard error of three measurements).

For hydroxyurea, the RTA fluorescence increase result on ricin A-chain (RTA) [1] (at 1 M) is on record as “no detectable fluorescence increase”; at ricin A-chain (RTA) [1] (at molar concentrations), “did not”.

On to Acetamide, for which, on ricin A-chain (RTA) [1] (at molar concentrations), the RTA fluorescence increase result is “produced similar fluorescence increases”. The “ΔG°” value on ricin A-chain (RTA) [1] (setting [3]) came to 0.19 ± 0.014 kcal/mol.

In the case of N-methylurea, the RTA fluorescence increase entry on ricin A-chain (RTA) [1] (at molar concentrations) is given as “produced similar fluorescence increases”. For the same molecule, the “ΔG°” value at ricin A-chain (RTA) [1] (setting [3]) was -0.048 ± 0.022 kcal/mol.

As for N, N-dimethylurea, the RTA fluorescence increase entry on ricin A-chain (RTA) [1] (at molar concentrations) is reported as “did not”. Moreover, the “binding to RTA in fluorescence experiments” value on ricin A-chain (RTA) [1] (dissociation constant could not be determined) is “bind weakly if at all”.

On to guanidine-HCl, for which the “RTA fluorescence increase on titration” value on ricin A-chain (RTA) [2] is listed as “did not produce a fluorescence increase”.

On to `Nc1ncnc2[nH]cnc12`, for which the pKd in the assay with RTA depurination site was 3.00. Further, the “ΔG°” value on ricin A-chain (RTA) [1] (setting [3]) is -4.78 ± 0.14 kcal/mol. Also, on ricin A-chain (RTA) [1], the “wavelength of maximal emission of RTA fluorescence” value was 334 nm, the “ΔH°” value is -12.7 ± 0.72 kcal/mol and the “ΔS°” value is given as -0.12 ± 0.01 kJ/(K*mol). For the same molecule, at ricin A-chain (RTA) [1] (listed as adenine), the “ΔH°” value is -12.7 kcal/mol.

Take Formamide: the RTA fluorescence increase entry at ricin A-chain (RTA) [1] (at molar concentrations) is “produced similar fluorescence increases”. In addition, the “ΔG°” value at ricin A-chain (RTA) [1] (setting [3]) worked out at 0 ± 0.072 kcal/mol.
